Measured values from several laboratories, pooled; numbers as filed in NIAID ChemDB.

Common to all: growth or infection tests; species: HIV-1; cell line: CEM; read-out: EC50

Blank or dashed fields: not listed here.

smiles	strain	changes	read by	setting	value
COC(=O)Oc1ccc(NC(=O)C2=C(C)OCCS2)cc1C(=O)OC(C)C	Nevirapine-resistant (RT V106A)	RT-V106A	syncytia	-	>10 µg/mL
COc1ccc(S(=O)(=O)N(CC2CCCC2)C[C@@H](O)CN(CCc2ccccc2)C(=O)c2cccc(O)c2C)cc1	IIIB	-	p24	-	<0.1 µM
Nc1ncnc2c1ncn2[C@H]1CC[C@@H](CCP(=O)(O)O)O1	IIIB	-	p24	-	60 µM
Cc1c(OC(=O)CCCCOc2ccc(C[C@H](NC(=O)OC(C)(C)C)C(=O)O)cc2)cccc1C(=O)N[C@@H](CSc1ccccc1)[C@@H](CN1C[C@H]2CCCC[C@H]2C[C@H]1C(=O)NC(C)(C)C)OC(=O)CCCCOc1ccc(C[C@H](NC(=O)OC(C)(C)C)C(=O)O)cc1	LAI	-	RT activity	-	2.2 µM
CCCOC(=O)c1cc(NC(=O)C2=C(C)OCCS2)ccc1Cl	TSAO-resistant (RT E138K)	RT-E138K	syncytia	-	4 µg/mL
CCCCCCCCCC[N+](C)(C)CCCNCc1c(O)cc2c(c1O)-c1cc(ccc1O)[C@H]1NC(=O)[C@@H]3NC(=O)C4NC(=O)[C@@H](Cc5ccc(c(Cl)c5)Oc5cc3cc(c5O)Oc3ccc(cc3Cl)[C@@H](O)[C@H](NC1=O)C(=O)N[C@@H]2C(=O)O)NC(=O)[C@H](N)c1ccc(O)c(c1)Oc1cc(O)cc4c1	HE	-	syncytia	-	9.5 µM
Nc1nc(N2CCCC2)c2ncn(CCOCP(=O)(O)O)c2n1	IIIB	-	cytopathic effect / MTT	-	2.17 µg/mL
Cc1noc(C)c1S(=O)(=O)N(Cc1ccccc1)C[C@@H](O)[C@H](Cc1ccccc1)NC(=O)[C@H](CC(N)=O)NC(=O)c1ccc2ccccc2n1	IIIB	-	p24	-	<10 µM
CC1=C(C(=O)N(C)c2ccc(Cl)c(C(=O)OC(C)C)c2)SCCO1	IIIB	-	syncytia	-	>10 µg/mL
Nc1ncnc2c1ncn2[C@@H]1C[C@H](O)[C@@H](O)[C@H]1O	IIIB	-	syncytia	-	>0.16 µg/mL
CN1CCN(C(=O)c2ccc3c(=O)c4ccccc4[nH]c3c2)CC1	TSAO-resistant (RT E138K)	RT-E138K	syncytia	-	0.5 µg/mL
COc1ccc(NC(=S)c2ccsc2C)cc1OCC=C(Cl)Cl	TIBO R82150-resistant (RT L100I)	RT-L100I	syncytia	-	0.09 µg/mL
CC(C)(C)NC(=O)[C@@H]1CN(Cc2cccnc2)CCN1C[C@H](C[C@@H](Cc1ccccc1)C(=O)N[C@H]1c2ccccc2C[C@H]1OC(=O)CCCCOc1ccc(C[C@H](N)C(=O)O)cc1)OC(=O)CCCCOc1ccc(C[C@H](N)C(=O)O)cc1	LAI	-	RT activity	-	0.81 µM
COc1ccc(S(=O)(=O)N(CC(C)C)C[C@@H](O)CCN(CC2CCCC2)S(=O)(=O)CC2CCS(=O)(=O)CC2)cc1	IIIB	-	p24	-	<1 µM
Cn1c(=O)cnn([C@H]2C[C@H](O)[C@@H](CO)S2)c1=O	IIIB	-	syncytia	-	>100 µM
O=C(c1ccccc1)N(CCc1ccccc1)C[C@H](O)CN(CC1CCCC1)S(=O)(=O)CC1COCO1	IIIB	-	p24	-	<1 µM
C[C@H](C[n+]1c[nH]c2c(Nc3ccccc3)nc(N)nc21)OCP(=O)(O)O	IIIB	-	cytopathic effect / MTT	-	11 ± 6 µg/mL
CC(=O)OCCOCN1c2nc(Cc3ccccc3)[nH]c2C(N)=NS1(=O)=O	IIIB	-	syncytia	-	29 µg/mL
CCCCCCn1c(=O)cnn([C@H]2C[C@H](O)[C@@H](CO)S2)c1=O	IIIB	-	syncytia	-	>100 µM
CC1=C(C(=O)Nc2ccc(Cl)c(OCC=C(Cl)Cl)c2)SCCO1	IIIB	-	syncytia	-	1.2 µg/mL
CCCC1=C(C(=O)Nc2ccc(Cl)c(C(=O)OCC)c2)SCCO1	PYR-resistant (RT Y181C)	RT-Y181C	syncytia	-	>10 µg/mL
Cc1cn(C2OC(CO[Si](C)(C)C(C)(C)C)C3(OS(=O)(=O)C=C3N)C2O[Si](C)(C)C(C)(C)C)c(=O)n(/C=C/CO)c1=O	IIIB	-	syncytia	-	0.05 µM
Nc1nc(NC2CC2)c2ncn(CCOCP(=O)(O)O)c2n1	IIIB	-	cytopathic effect / MTT	-	0.16 µg/mL
COc1ccc(NC(=S)c2ccoc2C)cc1OCC=C(Cl)Cl	TIBO R82913-resistant (RT K103N)	RT-K103N	syncytia	-	1.6 µg/mL
CCCCCCCCCCCCCCCCOP(=O)(OC[C@H]1OC(O)[C@@H](O)[C@@H](O)[C@@H]1O)OC[C@H]1O[C@@H](n2cc(C)c(=O)[nH]c2=O)C[C@@H]1N=[N+]=[N-]	LAV-Bru	-	RT activity	22 d	>1 µM
Cc1occc1C(=S)Nc1ccc(Cl)c(OCC=C(Cl)Cl)c1	Pyridone-resistant (RT Y181C)	RT-Y181C	syncytia	-	0.16 µg/mL
COc1ccc(S(=O)(=O)N(CC(C)C)C[C@@H](O)CCN(CC2CCCC2)S(=O)(=O)CC(C)(C)C)cc1	IIIB	-	p24	-	<1 µM
Cc1cn(C2OC(CO[Si](C)(C)C(C)(C)C)C3(OS(=O)(=O)C=C3N)C2O[Si](C)(C)C(C)(C)C)c(=O)n(/C=C\CO)c1=O	E138K	-	syncytia	-	>5 µM
O=C(N[C@@H](Cc1ccccc1)[C@H](O)CN(CC1CCCC1)S(=O)(=O)c1cccnc1)O[C@H]1CCOC1	IIIB	-	p24	-	<1 µM
CCCCCCCCCCCCCCCCOP(=O)(OCCO[C@@H]1O[C@H](CO)[C@@H](O)[C@H](O)[C@@H]1O)OC[C@H]1O[C@@H](n2cc(C)c(=O)[nH]c2=O)C[C@@H]1N=[N+]=[N-]	LAV-Bru	-	RT activity	7 d	<0.2 µM
O=C(c1ccccc1)N(CCc1ccccc1)C[C@H](O)CN(CC1CCCC1)S(=O)(=O)C1CCCOC1	IIIB	-	p24	-	<1 µM
COCCOCCOCCOC(=O)C1(C(=O)OCCOCCOCCOC)C2c3cc4c5c6c7c8c9c%10c(cc%11c9c9c(cc(c%12c9c8c5c3-%12)C21)C%11)C=CC1(C=C6C4)CN(CCOCCOCCN)CC%1071	IIIB	-	cytopathic effect	-	>4 µM
C/C(Cl)=C/COc1cc(NC(=S)c2ccoc2C)ccc1Cl	Pyridone-resistant (RT Y181C)	RT-Y181C	syncytia	-	0.043 µg/mL
CCCCn1c(=O)cnn([C@H]2C[C@H](O)[C@@H](CO)S2)c1=O	IIIB	-	syncytia	-	>20 µM
Cc1cn([C@H]2CC[C@@H](CCP(=O)(O)O)O2)c(=O)[nH]c1=O	IIIB	-	p24	-	>200 µM
Cc1occc1C(=S)Nc1ccc(Cl)c(SCC=C(Cl)Cl)c1	Nevirapine-resistant isolate (RT V106A)	RT-V106A	syncytia	-	0.025 µg/mL
COc1ccc(S(=O)(=O)N(Cc2ccccc2)CC(F)(F)C(=O)[C@@H](Cc2ccccc2)NC(=O)O[C@H]2CCOC2)cc1	IIIB	-	p24	-	<1 µM
CC(C)(C)NC(=O)[C@@H]1CN(Cc2cccnc2)CCN1C[C@H](C[C@@H](Cc1ccccc1)C(=O)N[C@H]1c2ccccc2C[C@H]1OC(=O)CCCCOc1ccc(C[C@H](NC(=O)OC(C)(C)C)C(=O)O)cc1)OC(=O)CCCCOc1ccc(C[C@H](NC(=O)OC(C)(C)C)C(=O)O)cc1	LAI	-	RT activity	-	>1 µM
C[C@H](Cn1cnc2c(NCCCC3CCCCC3)ncnc21)OCP(=O)(O)O	IIIB	-	cytopathic effect / MTT	-	10 ± 0 µg/mL
CCn1c(=O)cnn([C@H]2C[C@H](O)[C@@H](CO)S2)c1=O	IIIB	-	syncytia	-	>100 µM
Cc1cn(C2OC(CO[Si](C)(C)C(C)(C)C)C3(OS(=O)(=O)C=C3N)C2O[Si](C)(C)C(C)(C)C)c(=O)n(CCCNC(=O)c2ccc(N=[N+]=[N-])cc2O)c1=O	E138K	-	syncytia	-	>50 µM
CC1=C(C(=O)Nc2ccc(Cl)c(C(=O)OC(C)C)c2)SCCO1	TIBO-resistant (RT L100I)	RT-L100I	syncytia	-	>40 µg/mL
COC(=O)N[C@@H](Cc1ccccc1)[C@H](O)CN(CC(C)C)S(=O)(=O)c1ccc(Cl)c(Cl)c1	IIIB	-	p24	-	<10 µM
CCCCCCCC/C=C\CCCCCCCC(=O)O[C@H](CN1C[C@H]2CCCC[C@H]2C[C@H]1C(=O)NC(C)(C)C)[C@H](Cc1ccccc1)NC(=O)[C@H](CC(N)=O)NC(=O)c1ccc2ccccc2n1	LAI	-	RT activity	-	1.3 µM
NC1=NS(=O)(=O)N(Cc2ccccc2)c2nc(Cc3ccccc3)[nH]c21	IIIB	-	syncytia	-	>4 µg/mL
CCOC(=O)N[C@@H](Cc1ccccc1)[C@H](O)CN(CC(C)C)S(=O)(=O)c1ccc(F)cc1	IIIB	-	p24	-	<10 µM
C=C(Cl)COc1cc(NC(=S)c2ccoc2C)ccc1C	TIBO R82913-resistant (RT K103N)	RT-K103N	syncytia	-	0.75 µg/mL
CC(C)CN(C[C@@H](O)[C@H](Cc1ccccc1)NC(=O)O[C@@H]1CCOC1)S(=O)(=O)c1cccc(S(N)(=O)=O)c1	IIIB	-	p24	-	<1 µM
CC(C)(C)NC(=O)[C@@H]1CN(Cc2cccnc2)CCN1C[C@H](C[C@@H](Cc1ccccc1)C(=O)N[C@H]1c2ccccc2C[C@H]1O)OC(=O)COc1ccc(C[C@H](N)C(=O)O)cc1	LAI	-	RT activity	-	0.01 µM

The first 3 rows once more:

smiles	strain	changes	read by	setting	value
COC(=O)Oc1ccc(NC(=O)C2=C(C)OCCS2)cc1C(=O)OC(C)C	Nevirapine-resistant (RT V106A)	RT-V106A	syncytia	-	>10 µg/mL
COc1ccc(S(=O)(=O)N(CC2CCCC2)C[C@@H](O)CN(CCc2ccccc2)C(=O)c2cccc(O)c2C)cc1	IIIB	-	p24	-	<0.1 µM
Nc1ncnc2c1ncn2[C@H]1CC[C@@H](CCP(=O)(O)O)O1	IIIB	-	p24	-	60 µM

Rows are shuffled and stem from different studies. ECn is the concentration giving n% inhibition of infection, replication or growth.